The record followed here is paper PMC3278406 (PLoS ONE, 2012).

“And” between values parts separate entries of the source, which are not always exact repeats. Identical values can stand only once.

The assay deals with Stx1 toxoid (Bacteriophage H30, UniProt P69178).

What is called Kd is the free concentration of one partner at which half of the binding sites on the other are occupied at equilibrium, for simple one-to-one binding. Read a high Kd as a looser complex. In turn, Globotetraosyl ceramide returned a Kd of 3.9 nM. The same measure for “Globotriaosyl ceramide, Ceramide trihexoside”: 4.2 nM and 6.4 nM.
